Measured values from several laboratories, pooled; numbers as filed in NIAID ChemDB.

All rows: whole-cell or culture tests; organism: Mycobacterium tuberculosis

Conditions beyond the fields shown may differ between rows.

compound | changes | conditions | cells | tested at | endpoint | strain | method | result
O=[N+]([O-])c1ccc(C=Nc2ccc(-c3nnc(SCc4ccc(Cl)cc4Cl)n3-c3ccccc3)cc2)o1 |  |  |  | 6.25 µg/mL | inhibition | H37Rv |  | 50–59%
O=C(Oc1cc(Cl)ccc1C(=O)Nc1ccc(C(F)(F)F)cc1)c1ccccc1 |  | 14 d |  |  | MIC100 | H37Rv | broth dilution | 0.5 µM
O=P1(C(Cl)(Cl)Cl)OCCCCO1 |  |  |  |  | MIC bound | H37Rv | BACTEC | >12.5 µg/mL
CC[C@@H](CO)NCCN[C@@H](CC)CO |  |  |  |  | MIC | H37Rv | visual reading | 1.25 µg/mL
S=c1[nH]nc2nc3c4ccccc4c4ncccc4c3nn12 |  |  |  |  | MIC bound | H37Rv | resazurin | >6.25 µg/mL
CO[C@H]1/C=C/O[C@@]2(C)Oc3c(C)c(O)c4c(c3C2=O)C(=O)C(/C=N/N=C/N2CCCCC2)=C(NC(=O)/C(C)=C\C=C\[C@H](C)[C@H](O)[C@@H](C)[C@@H](O)[C@@H](C)[C@H](OC(C)=O)[C@@H]1C)C4=O |  |  |  |  | MIC | H37Rv |  | 0.0085 µg/mL
Cc1cc(O)c2c(c1)C(=O)C(c1c(C)cc3c(c1O)C(=O)C=CC3=O)=CC2=O |  |  |  |  | MIC | H37Rv |  | 100 µg/mL
Fc1ccc(-n2ncc(C(c3ccccc3)n3ccnc3)c2-c2ccccc2)cc1 |  |  |  |  | MIC90 | ATCC 35828 (pyrazinamide-resistant) |  | ≥100 µM
CO[C@H]1/C=C/O[C@@]2(C)Oc3c(C)c(O)c4c(O)c(c(N(N(C)CC5CCCO5)N(C)CC5CCCO5)c(O)c4c3C2=O)NC(=O)/C(C)=C\C=C\[C@H](C)[C@H](O)[C@@H](C)[C@@H](O)[C@@H](C)[C@H](OC(C)=O)[C@@H]1C |  |  |  |  | MIC | M. bovis Ravenel |  | 0.003 µg/mL
CNCC(Cc1cc(Br)c(CO)c(Br)c1)OC |  |  |  |  | MIC | H37Rv |  | 820 µM
Clc1ccccc1-c1c(C(c2ccccc2)n2ccnc2)cnn1-c1ccccc1 |  |  |  |  | MIC90 | ATCC 35828 (pyrazinamide-resistant) |  | 89.2 µM
CO/N=C(\C(=O)N[C@@H]1C(=O)N2C(C(=O)O)=C(COC(C)=O)CS[C@H]12)c1csc(N)n1 |  |  |  |  | MIC | H37Rv | turbidity | >200 µg/mL
CC(=O)N[C@@H](Cc1ccccc1)C(=O)Oc1cc(Br)ccc1C(=O)Nc1ccc(C(F)(F)F)cc1 |  | 14 d |  |  | MIC100 | H37Rv | broth dilution | 0.25 µM
CC1=C(O)C(C)(Cc2cccc(C(=O)c3ccccc3)c2)SC1=O |  |  |  |  | MIC50 | H37Rv |  | 50 µM
CC(=O)CCC1CC(=O)OC1(C)C |  |  |  | 12.8 µg/mL | inhibition | H37Rv | BACTEC | -4%
CC1COc2c(N3CCN(C)CC3)c(F)cc3c(=O)c(C(=O)O)cn1c23 | Ofloxacin-resistant |  |  |  | MIC | 12119 | resazurin | >11 µM
COc1ccc2c(c1)[n+]([O-])c(/C(C)=N/NC(N)=S)c(C)[n+]2[O-] |  |  |  |  | MIC bound | H37Rv | BACTEC | >12.5 µg/mL
NNC(=O)c1ccncc1 |  |  |  |  | MIC | H37Rv | visual reading | 0.312 µg/mL
CC[C@@H](CO)NCCN[C@@H](CC)CO | Ofloxacin-resistant |  |  |  | MIC | 12119 | resazurin | 1.2 µM
Cc1ccc(CNC(=O)c2c(C)n([O-])c3cc(Cl)c(Cl)cc3[n+]2=O)cc1 |  |  |  |  | EC90 | H37Rv | resazurin | >100 µg/mL
O=C(Oc1cc(Br)ccc1C(=O)Nc1ccc(C(F)(F)F)cc1)c1ccccc1 |  | 14 d |  |  | MIC100 | H37Rv | broth dilution | 1 µM
CC(C)=CCC/C(C)=C/CC1(C)SC(=O)C(C)=C1O |  |  |  |  | MIC90 | H37Rv |  | 200 µM
NC(=O)c1c(CC(=O)O)nn(-c2ccccc2)c1N |  |  |  | 12.5 µg/mL | inhibition | H37Rv | BACTEC | 0%
COc1cc(C)cc2c(O)c(-c3c(C)cc4c(O)ccc(O)c4c3OC)cc(O)c12 |  |  |  |  | MIC | H37Rv |  | >100 µg/mL
COc1cc(Cc2cnc(N)nc2N)cc(OC)c1OC |  |  |  |  | MIC | H37Rv | turbidity | >200 µg/mL
Cc1ccc(-c2noc(C3=CC4(CCN(CC5CCCO5)CC4)c4ccccc43)n2)cn1 | Ofloxacin-resistant |  |  |  | MIC | 12119 | resazurin | 1.56 µM
CC(C)=CCC/C(C)=C/CC/C(C)=C/CC/C=C(\C)CC/C=C(\C)CCC=C(C)C |  |  |  |  | MIC | 90-221387 |  | 51.3 µg/mL
COc1ccc(-c2noc(C3=CC4(CCN(CC5CCCO5)CC4)c4ccccc43)n2)cc1 | Spiroindene-resistant |  |  |  | MIC | TB375 | turbidity | 3 µM
Fc1ccccc1-n1ncc(C(c2ccccc2)n2ccnc2)c1-c1ccccc1 |  |  |  |  | MIC50 | ATCC 35822 (isoniazid-resistant) |  | ≥100 µM
CC(C)c1ccc(C2C3=C(N=C4SCC(=O)N42)C(=O)c2ccccc23)cc1 |  |  |  | 12.5 µg/mL | inhibition | H37Rv | BACTEC | 0%
CN(C)c1cc(NC(=O)CNC(C)(C)C)c(O)c2c1C[C@H]1C[C@H]3[C@H](N(C)C)C(=O)C(C(N)=O)=C(O)[C@@]3(O)C(=O)C1=C2O |  |  |  |  | MIC | H37Rv | turbidity | 6.3 µg/mL
CC(=O)Nc1c(F)c(N2CC(C)NC(C)C2)c(F)c2c1c(=O)c(C(=O)O)cn2C1CC1 |  |  |  |  | MIC | H37Rv |  | 10 µg/mL
Fc1ccccc1-c1c(C(c2ccccc2)n2ccnc2)cnn1-c1ccccc1F |  |  |  |  | MIC50 | ATCC 35822 (isoniazid-resistant) |  | ≥100 µM
COc1ccc2c(=O)c3c(O)cccc3oc2c1O |  |  |  |  | MIC | 90-221387 |  | 24.8 µg/mL
Clc1ccc(-n2ncc(C(c3ccccc3)n3ccnc3)c2-c2ccccc2Cl)c(Cl)c1 |  |  |  |  | MIC50 | ATCC 27294 |  | 6.7 µM
Cc1c(C(=O)NCc2ccc(Cl)cc2)[n+](=O)c2cc(Cl)ccc2n1[O-] |  |  |  |  | EC90 | H37Rv | resazurin | 26.98 µg/mL
O=C1C2CSCN2C(=O)C2CSCN12 |  |  |  |  | MIC bound | H37Rv | resazurin | >6.25 µg/mL
Cc1ccc2c(c1)[n+](=O)c(C(=O)NCc1ccc(C(F)(F)F)cc1)c(C)n2[O-] |  |  |  |  | EC90 | H37Rv | resazurin | >100 µg/mL
N#CC(/C(=N/NC(=O)C(=O)NN)C(=O)Nc1nc([N+](=O)[O-])cs1)c1ccc(Cl)cc1 |  |  |  | 12.5 µg/mL | inhibition | H37Rv | BACTEC | 0%
CN[C@@H]1[C@@H](O)[C@@H](O[C@@H]2[C@@H](O)[C@H](O[C@H]3O[C@H](CN)CC[C@H]3N)[C@@H](N)C[C@H]2N)OC[C@]1(C)O |  |  |  |  | MIC | H37Rv | turbidity | 3.1 µg/mL
Clc1ccc(-c2c(C(c3ccccc3)n3ccnc3)cnn2-c2ccccc2)cc1 |  |  |  |  | MIC50 | ATCC 27294 |  | 25.3 µM
CN[C@@H]1[C@H](O[C@H]2[C@H](O[C@H]3[C@H](O)[C@@H](O)[C@H](N=C(N)N)[C@@H](O)[C@@H]3N=C(N)N)O[C@@H](C)[C@]2(O)C=O)O[C@@H](CO)[C@H](O)[C@H]1O | Spiroindene-resistant |  |  |  | MIC | TB377 | turbidity | 1 µM
CO[C@H]1/C=C/O[C@@]2(C)Oc3c(C)c(O)c4c(O)c(cc(O)c4c3C2=O)NC(=O)/C(C)=C\C=C\[C@H](C)[C@H](O)[C@@H](C)[C@@H](O)[C@@H](C)[C@H](OC(C)=O)[C@@H]1C |  |  |  |  | MIC | M. bovis Ravenel |  | 0.03 µg/mL
O=C1CSC(c2c(F)cccc2F)N1c1nncs1 |  |  |  |  | MIC bound | H37Rv | BACTEC | >12.5 µg/mL
O=C(Nc1ccc(Cl)c(Cl)c1)c1ccc(Cl)cc1OS(=O)(=O)c1ccccc1 |  | 14 d |  |  | MIC100 | H37Rv | broth dilution | 1 µM
CO[C@H]1/C=C/O[C@@]2(C)Oc3c(C)c(=O)c4c(O)c(c5[nH]c6ccccc6nc5c4c3C2=O)NC(=O)/C(C)=C\C=C\[C@H](C)[C@H](O)[C@@H](C)[C@@H](O)[C@@H](C)[C@H](OC(C)=O)[C@@H]1C |  |  |  |  | MIC | M. bovis Ravenel |  | 0.03 µg/mL
COc1cc(C=O)cc(OC)c1O |  |  |  |  | MIC | 90-221387 |  | >100 µg/mL
CC(C)=CCC/C(C)=C/CC/C(C)=C/CC1(C)SC(=O)C(C)=C1O |  |  |  |  | MIC90 | H37Rv |  | 29 µM
O=C(N/N=C/c1c(O)ccc2ccccc12)C(=O)N/N=C/c1c(O)ccc2ccccc12 |  |  |  |  | MIC | H37Rv | BACTEC | ≥12.5 µg/mL
Fc1ccc(-c2c(C(c3ccccc3)n3ccnc3)cnn2-c2ccc(F)cc2)cc1 |  |  |  |  | MIC50 | ATCC 27294 |  | ≥100 µM
CO[C@H]1C[C@@H]2\C=C(C)/C=C/C=C\C(=O)N[C@H](c3ccccc3)C/C=C/CC[C@H](O)CC(=O)C2=C1O |  |  |  |  | MIC | PAS-R |  | 3.1 µg/mL
Nc1nnc(S(=O)(=O)N2CCN(c3cc4c(cc3F)c(=O)c(C(=O)O)cn4C3CC3)CC2)s1 |  |  |  |  | MIC | H37Rv |  | 10 µg/mL
Nc1nnc2nc(C(C(=O)c3cccc(O)c3)c3nc4nnc(N)n4[nH]c3=O)c(=O)[nH]n12 |  |  |  | 12.5 µg/mL | inhibition | H37Rv | BACTEC | 0%
C=C(C)[C@@H](O)Cc1c(O)cc(-c2ccc(O)cc2)cc1OC |  |  |  |  | MIC | 90-221387 |  | 50.3 µg/mL
CC1CN(c2cc3c(c(N)c2F)c(=O)c(C(=O)O)cn3C2CC2)CC(C)N1S(=O)(=O)c1nnc(N)s1 |  |  |  |  | MIC | H37Rv |  | 10 µg/mL
NNC(=O)C1=NN(c2ccccc2)C(=O)C1 |  |  |  |  | MIC bound | H37Rv | BACTEC | >12.5 µg/mL
CN(C)c1ccc(O)c2c1C[C@H]1C[C@H]3[C@H](N(C)C)C(=O)C(C(N)=O)=C(O)[C@@]3(O)C(=O)C1=C2O |  |  |  |  | MIC | H37Rv | turbidity | 25 µg/mL
C=C/C(C)=C/[C@@]1(C)SC(=O)C(C)=C1O |  |  |  |  | MIC | PMH29:kasB |  | 5 µg/mL
Nc1c(Br)cc(O)c(CC(=O)O)c1Br |  |  |  |  | MIC | H37Rv |  | 49 µM
O=C(NCCCl)N1CCC(CN=c2cc3n(-c4ccc(Cl)cc4)c4ccccc4nc-3cc2Nc2ccc(Cl)cc2)CC1 |  |  | VERO |  | MIC | H37Rv |  | 0.1 µg/mL
CC1=C(O)C(C)(CCC(C)CCCC(C)C)SC1=O |  |  |  |  | MIC50 | H37Rv |  | 22 µM
CCCN(CCC)CCCOC(=O)c1ccc2oc3ccc(C(=O)OCCCN(CCC)CCC)cc3c2c1 |  |  |  |  | MIC bound | H37Rv | BACTEC | ≤12.5 µg/mL
C1=C(c2nc(-c3ccccc3)no2)c2ccccc2OC12CCN(CC1CCCO1)CC2 |  |  |  |  | MIC | TB333 | turbidity | 12.5 µM
COc1c(N2CCNC(C)C2)c(F)cc2c(=O)c(C(=O)O)cn(C3CC3)c12 |  |  |  |  | MIC90 | 25 strains |  | 0.2 µg/mL
O=C(N/N=C/c1ccccc1O)c1cccc2ccccc12 |  |  |  |  | MIC | H37Rv | BACTEC | ≥12.5 µg/mL
CO[C@H]1/C=C/O[C@@]2(C)Oc3c(C)c(O)c4c(O)c(c(/C=N/N5CCN(C)CC5)c(O)c4c3C2=O)NC(=O)/C(C)=C\C=C\[C@H](C)[C@H](O)[C@@H](C)[C@@H](O)[C@@H](C)[C@H](OC(C)=O)[C@@H]1C |  |  |  |  | MIC50 | ATCC 35822 (isoniazid-resistant) |  | 0.6 µM
CCOC(=O)NC(Nc1ccc(S(=O)(=O)Nc2ncccn2)cc1)(C(=O)OCC)C(F)(F)F |  |  |  |  | MIC bound | H37Rv | resazurin | >6.25 µg/mL
CC(=O)N[C@@H](Cc1ccccc1)C(=O)Oc1cc(Cl)ccc1C(=O)Nc1ccc(C(F)(F)F)cc1 |  | 14 d |  |  | MIC100 | H37Rv | broth dilution | 0.25 µM
CNC(=O)c1cc(C(=O)NC)c[n+](Cc2c(Cl)cccc2Cl)c1.[Br-] |  |  |  |  | MIC | H37Rv | BACTEC | ≥12.5 µg/mL
NNC(=O)c1ccncc1 |  |  |  |  | MIC | H37Rv | resazurin | 0.21 µM
CCCCCCC1=C(O)C(=O)C(CCCCCC)=C(O)C1=O |  |  |  |  | MIC | H37Rv | BACTEC | 128 µg/mL
CO[C@H]1/C=C/O[C@@]2(C)Oc3c(C)c(O)c4c(O)c(c(/C=N/N5CCN(C)CC5)c(O)c4c3C2=O)NC(=O)/C(C)=C\C=C\[C@H](C)[C@H](O)[C@@H](C)[C@@H](O)[C@@H](C)[C@H](OC(C)=O)[C@@H]1C |  |  |  |  | MIC | H37Rv |  | 0.022 µg/mL
NC(=N\N=C\C(O)C(O)C(O)C(O)C(=O)O)/C(N)=N/N=C/C(O)C(O)C(O)C(O)C(=O)O |  |  |  | 12.5 µg/mL | inhibition | H37Rv | BACTEC | 12%
O=C1C(=O)c2ccccc2C(O)=C1C1C(=O)c2ccccc2C(=O)C1O |  |  |  |  | MIC | H37Rv |  | >100 µg/mL

A number after MIC or MFC names an inhibition level or a share of isolates. Inhibition is in % at the dose shown (toxicity tests: loss of growth or viability). ECn: concentration that inhibits the pathogen or its effect by n%. Blank or dashed fields: not listed here. a–b is a range or a potency band. MIC bound comes from a single tested concentration.